{"source": "patent US10258597B2", "about": "“Method for treating a glycoprotein-related disease” (dated 2019)", "key": {"[1]": {"tested_on": "Feline immunodeficiency virus", "assay": "Clinical experiments on feline immunodeficiency virus (PCR virus detection)", "settings": "Blood, company V"}, "Canine distemper virus": {"tested_on": "Canine distemper virus", "assay": "Clinical experiments on canine distemper virus (PCR virus detection)"}, "Feline leukemia virus": {"tested_on": "Feline leukemia virus", "assay": "Clinical experiments on Feline leukemia virus (PCR virus detection)", "settings": "Cat 130730, Blood, total days 9, company V"}, "Felid herpesvirus 1": {"tested_on": "Felid herpesvirus 1", "assay": "Clinical experiments on felid herpesvirus 1 (PCR virus detection)"}, "[2]": {"tested_on": "Feline panleukopenia virus", "assay": "Clinical experiments on feline panleukopenia virus (PCR virus detection)"}, "[3]": {"tested_on": "7 virus species belonged to 5 families", "assay": "Clinical experiments on virus infected dogs and cats, overall summary", "settings": "Tables 2-1 to 2-7"}, "Canine parvovirus": {"tested_on": "Canine parvovirus", "assay": "Clinical experiments on canine parvovirus (PCR virus detection)"}, "Feline coronavirus": {"tested_on": "Feline coronavirus", "assay": "Clinical experiments on feline coronavirus (PCR virus detection)", "settings": "Cat 150430, Blood, total days 8"}}, "data": [{"substance": "monosodium methanearsonate", "values": [{"measurement": "Results (virus detection)", "setting": "[1]; Cat 130730, Day 0, total days 9", "value": "+ (*^a)"}, {"measurement": "Results (virus detection)", "setting": "[1]; Cat 130730, Day 9, total days 9", "value": "− (*^b)"}, {"measurement": "Results (virus detection)", "setting": "[1]; Cat 130805, Day 0, total days 14", "value": "+ (*^a)"}, {"measurement": "Results (virus detection)", "setting": "[1]; Cat 130805, Day 14, total days 14", "value": "− (*^b)"}, {"measurement": "Results (virus amount)", "setting": "Canine distemper virus; Dog 140617, Blood, Day 0, total days 3", "value": "2.8e-07", "unit": "ng/µL"}, {"measurement": "Results (virus amount)", "setting": "Canine distemper virus; Dog 140617, Blood, Day 3, total days 3", "value": "•"}, {"measurement": "Results (virus amount)", "setting": "Canine distemper virus; Dog 140701, Nasal secretion (not quantitative detection), Day 0, total days 14", "value": "1.341e-05", "unit": "ng/µL"}, {"measurement": "Results (virus amount)", "setting": "Canine distemper virus; Dog 140701, Nasal secretion (not quantitative detection), Day 4, total days 14", "value": "3.34e-06", "unit": "ng/µL"}, {"measurement": "Results (virus amount)", "setting": "Canine distemper virus; Dog 140701, Nasal secretion (not quantitative detection), Day 10, total days 14", "value": "1.16e-06", "unit": "ng/µL"}, {"measurement": "Results (virus amount)", "setting": "Canine distemper virus; Dog 140701, Nasal secretion, Day 14, total days 14", "value": "•"}, {"measurement": "Results (virus amount)", "setting": "Canine distemper virus; Dog 140703, Nasal secretion (not quantitative detection), Day 0, total days 12", "value": "2.4e-07", "unit": "ng/µL"}, {"measurement": "Results (virus amount)", "setting": "Canine distemper virus; Dog 140703, Nasal secretion (not quantitative detection), Day 3, total days 12", "value": "3.12e-06", "unit": "ng/µL"}, {"measurement": "Results (virus amount)", "setting": "Canine distemper virus; Dog 140703, Nasal secretion (not quantitative detection), Day 10, total days 12", "value": "6.1e-07", "unit": "ng/µL"}, {"measurement": "Results (virus amount)", "setting": "Canine distemper virus; Dog 140703, Nasal secretion, Day 12, total days 12", "value": "•"}, {"measurement": "Results (virus amount)", "setting": "Canine distemper virus; Dog 140808-1, Blood, Day 0, total days 12", "value": "3.5e-06", "unit": "ng/µL"}, {"measurement": "Results (virus amount)", "setting": "Canine distemper virus; Dog 140808-1, Blood, Day 8, total days 12", "value": "2.64e-06", "unit": "ng/µL"}, {"measurement": "Results (virus amount)", "setting": "Canine distemper virus; Dog 140808-1, Blood, Day 12, total days 12", "value": "•"}, {"measurement": "Results (virus amount)", "setting": "Canine distemper virus; Dog 140808, Blood, Day 0, total days 11", "value": "3.1e-06", "unit": "ng/µL"}, {"measurement": "Results (virus amount)", "setting": "Canine distemper virus; Dog 140808, Blood, Day 7, total days 11", "value": "3.5e-06", "unit": "ng/µL"}, {"measurement": "Results (virus amount)", "setting": "Canine distemper virus; Dog 140808, Blood, Day 11, total days 11", "value": "•"}, {"measurement": "Results (virus detection)", "setting": "Feline leukemia virus; Day 0", "value": "+ (*^a)"}, {"measurement": "Results (virus detection)", "setting": "Feline leukemia virus; Day 9", "value": "− (*^b)"}, {"measurement": "Results (virus amount)", "setting": "Felid herpesvirus 1; Cat 150417, Blood, Day 0, total days 12", "value": 0.01528214, "unit": "ng/µL"}, {"measurement": "Results (virus amount)", "setting": "Felid herpesvirus 1; Cat 150417, Blood, Day 4, total days 12", "value": "2.14e-06", "unit": "ng/µL"}, {"measurement": "Results (virus amount)", "setting": "Felid herpesvirus 1; Cat 150417, Blood, Day 13, total days 12", "value": "•"}, {"measurement": "Results (virus amount)", "setting": "Felid herpesvirus 1; Cat 150502, Nasal secretion (not quantitative detection), Day 0, total days 10", "value": "1.518e-05", "unit": "ng/µL"}, {"measurement": "Results (virus amount)", "setting": "Felid herpesvirus 1; Cat 150502, Nasal secretion (not quantitative detection), Day 10, total days 10", "value": "3.75e-07", "unit": "ng/µL"}, {"measurement": "Results (virus amount)", "setting": "Felid herpesvirus 1; Cat 150507, Blood, Day 7, total days 9", "value": "•"}, {"measurement": "Results (virus amount)", "setting": "Felid herpesvirus 1; Cat 150516, Blood, Day 0, total days 8", "value": 0.00022825, "unit": "ng/µL"}, {"measurement": "Results (virus amount)", "setting": "Felid herpesvirus 1; Cat 150516, Blood, Day 15, total days 8", "value": "6.971e-06", "unit": "ng/µL"}, {"measurement": "Results (virus amount)", "setting": "[2]; Cat 140512, Blood, Day 0, total days 8", "value": "1.4367e-05", "unit": "ng/µL"}, {"measurement": "Results (virus amount)", "setting": "[2]; Cat 140512, Blood, Day 7, total days 8", "value": "•"}, {"measurement": "Results (virus amount)", "setting": "[2]; Cat 141128, Blood, Day 0, total days 10", "value": 0.00130942, "unit": "ng/µL"}, {"measurement": "Results (virus amount)", "setting": "[2]; Cat 141128, Blood, Day 6, total days 10", "value": "1.088e-05", "unit": "ng/µL"}, {"measurement": "Results (virus amount)", "setting": "[2]; Cat 141128, Blood, Day 7, total days 10", "value": "2.5e-07", "unit": "ng/µL"}, {"measurement": "Results (virus amount)", "setting": "[2]; Cat 141128, Blood, Day 8, total days 10", "value": "7.9e-07", "unit": "ng/µL"}, {"measurement": "Results (virus amount)", "setting": "[2]; Cat 150323, Feces (not quantitative detection), Day 0, total days 12", "value": 0.04240717, "unit": "ng/µL"}, {"measurement": "Results (virus amount)", "setting": "[2]; Cat 150323, Feces (not quantitative detection), Day 6, total days 12", "value": 0.22391915, "unit": "ng/µL"}, {"measurement": "Results (virus amount)", "setting": "[2]; Cat 150323, Feces (not quantitative detection), Day 15, total days 12", "value": "7.11e-06", "unit": "ng/µL"}, {"measurement": "Results (virus amount)", "setting": "[2]; Cat 150323, Feces (not quantitative detection), Day 21, total days 12", "value": "1.4e-07", "unit": "ng/µL"}, {"measurement": "Results (virus amount)", "setting": "[2]; Cat 150529, Blood, Day 0, total days 12", "value": "1.217e-05", "unit": "ng/µL"}, {"measurement": "Results (virus amount)", "setting": "[2]; Cat 150529, Blood, Day 15, total days 12", "value": "•"}, {"measurement": "administered period (average)", "setting": "[3]", "value": 9, "unit": "days"}, {"measurement": "Results (virus amount)", "setting": "Canine parvovirus; Dog 140413, Blood, Day 0, total days 10", "value": 0.00105804, "unit": "ng/µL"}, {"measurement": "Results (virus amount)", "setting": "Canine parvovirus; Dog 140413, Blood, Day 3, total days 10", "value": "3.56e-05", "unit": "ng/µL"}, {"measurement": "Results (virus amount)", "setting": "Canine parvovirus; Dog 140413, Blood, Day 9, total days 10", "value": "5.314e-05", "unit": "ng/µL"}, {"measurement": "Results (virus amount)", "setting": "Canine parvovirus; Dog 140413, Blood, Day 11, total days 10", "value": "1.837e-06", "unit": "ng/µL"}, {"measurement": "Results (virus amount)", "setting": "Canine parvovirus; Dog 140529, Feces (not quantitative detection), Day 0, total days 4", "value": 0.00932918, "unit": "ng/µL"}, {"measurement": "Results (virus amount)", "setting": "Canine parvovirus; Dog 140529, Feces (not quantitative detection), Day 4, total days 4", "value": 0.00028836, "unit": "ng/µL"}, {"measurement": "Results (virus amount)", "setting": "Canine parvovirus; Dog 150125, Blood, Day 0, total days 7", "value": 0.00046322, "unit": "ng/µL"}, {"measurement": "Results (virus amount)", "setting": "Canine parvovirus; Dog 150125, Blood, Day 3, total days 7", "value": "3.45e-06", "unit": "ng/µL"}, {"measurement": "Results (virus amount)", "setting": "Canine parvovirus; Dog 150125, Blood, Day 5, total days 7", "value": "7.5e-07", "unit": "ng/µL"}, {"measurement": "Results (virus amount)", "setting": "Canine parvovirus; Dog 150125, Blood, Day 6, total days 7", "value": "4e-07", "unit": "ng/µL"}, {"measurement": "Results (virus amount)", "setting": "Canine parvovirus; Dog 150125, Blood, Day 11, total days 7", "value": "•"}, {"measurement": "Results (virus amount)", "setting": "Canine parvovirus; Dog 150708, Blood, Day 0, total days 10", "value": 0.004072424, "unit": "ng/µL"}, {"measurement": "Results (virus amount)", "setting": "Canine parvovirus; Dog 150708, Blood, Day 8, total days 10", "value": 0.00026969, "unit": "ng/µL"}, {"measurement": "Results (virus amount)", "setting": "Canine parvovirus; Dog 150708, Blood, Day 15, total days 10", "value": "1.856e-05", "unit": "ng/µL"}, {"measurement": "Results (virus amount)", "setting": "Canine parvovirus; Dog 150716, Blood, Day 0, total days 10", "value": 0.00458306, "unit": "ng/µL"}, {"measurement": "Results (virus amount)", "setting": "Canine parvovirus; Dog 150716, Feces (*d), Day 10, total days 10", "value": "2.47e-05", "unit": "ng/µL"}, {"measurement": "Results (virus amount)", "setting": "Feline coronavirus; Day 0", "value": 0.00417338, "unit": "ng/µL"}, {"measurement": "Results (virus amount)", "setting": "Feline coronavirus; Day 8", "value": "•"}]}]}
